Amino acid sequences for entries named in this document (tags omitted). A change or cut given only in a name is not applied to a line headed by its entry. Residues count along the entry.
UniProt P27958, 1027-1657 C1454S limits assumed, stated change not applied: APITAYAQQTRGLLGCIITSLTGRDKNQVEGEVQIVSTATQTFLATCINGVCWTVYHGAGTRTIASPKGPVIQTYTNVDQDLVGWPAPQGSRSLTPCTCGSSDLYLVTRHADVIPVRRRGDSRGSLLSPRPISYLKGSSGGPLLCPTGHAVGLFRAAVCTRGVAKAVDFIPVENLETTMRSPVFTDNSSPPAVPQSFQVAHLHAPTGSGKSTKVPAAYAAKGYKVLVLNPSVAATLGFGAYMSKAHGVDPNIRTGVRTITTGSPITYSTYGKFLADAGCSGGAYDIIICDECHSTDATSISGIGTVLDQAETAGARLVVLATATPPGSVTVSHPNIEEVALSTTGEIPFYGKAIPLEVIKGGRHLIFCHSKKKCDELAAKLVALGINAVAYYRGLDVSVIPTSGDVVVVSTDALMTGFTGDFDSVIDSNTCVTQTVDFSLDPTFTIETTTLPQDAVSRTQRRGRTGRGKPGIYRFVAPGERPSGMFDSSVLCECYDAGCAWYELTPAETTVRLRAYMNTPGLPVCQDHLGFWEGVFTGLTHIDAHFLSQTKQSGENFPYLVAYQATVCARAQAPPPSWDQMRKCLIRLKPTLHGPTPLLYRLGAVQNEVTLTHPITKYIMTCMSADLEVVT

According to patent US7173004B2, “Macrocyclic isoquinoline peptide inhibitors of hepatitis C virus” (Bristol-Myers Squibb Company, priority 2003, dated 2007):

What was measured:
[1] = molecular target: HCV NS3/4A protease complex, BMS strain (genotype 1a) (UniProt P27958, C1454S/C1711G, species not given/STRAIN_BMS); test: Recombinant HCV NS3/4A protease complex FRET peptide assay, BMS strain; type: biochemical; conditions: NS3/4A BMS strain; activity range symbols
Excerpt: Recombinant HCV NS3/4A Protease Complex FRET Peptide Assay
The purpose of this in vitro assay was to measure the inhibition of HCV NS3 protease complexes, derived from the BMS strain, H77C strain or J416S strain, as described below, by compounds of the present invention. This assay provides an indication of how effective compounds of the present invention would be in inhibiting HCV proteolytic activity.
Serum from an HCV-infected patient was obtained from Dr. T. Wright, San Francisco Hospital. An engineered full-length cDNA (compliment deoxyribonucleic acid) template of the HCV genome (BMS strain) was constructed from DNA fragments obtained by reverse transcription-PCR (RT-PCR) of serum RNA (ribonucleic acid) and using primers selected on the basis of homology between other genotype 1a strains. From the determination of the entire genome sequence, a genotype 1a was assigned to the HCV isolate according to the classification of Simmonds et al. (See P Simmonds, K A Rose, S Graham, S W Chan, F McOmish, B C Dow, E A Follett, P L Yap and H Marsden, J. Clin. Microbiol., 31(6), 1493–1503 (1993)). […] The infectious clones, H77C (1a genotype) and J4L6S (1b genotype) were obtained from R. Purcell (NIH) and the sequences are published in Genbank (AAB67036, see Yanagi, M., Purcell, R. H., Emerson, S. U. and Bukh, J. Proc. Natl. Acad. Sci. U.S.A. 94(16), 8738–8743 (1997); AF054247, see Yanagi, M., St Claire, M., Shapiro, M., Emerson, S. U., Purcell, R. H. and Bukh, J, Virology 244 (1), 161–172. (1998)).
The H77C and J4L6S strains were used for production of recombinant NS3/4A protease complexes. DNA encoding the recombinant HCV NS3/4A protease complex (amino acids 1027 to 1711) for these strains were manipulated as described by P. Gallinari et al. (see Gallinari P, Paolini C, Brennan D, Nardi C, Steinkuhler C, De Francesco R. Biochemistry. 38(17):5620–32, (1999)). Briefly, a three-lysine solubilizing tail was added at the 3′-end of the NS4A coding region. The cysteine in the P1 position of the NS4A-NS4B cleavage site (amino acid 1711) was changed to a glycine to avoid the proteolytic cleavage of the lysine tag. Furthermore, a cysteine to serine mutation was introduced by PCR at amino acid position 1454 to prevent the autolytic cleavage in the NS3 helicase domain. The variant DNA fragment was cloned in the pET21b bacterial expression vector (Novagen) and the NS3/4A complex was expressed in Escherichia coli strain BL21 (DE3) (Invitrogen) following the protocol described by P. Gallinari et al. (see Gallinari P, Brennan D, Nardi C, Brunetti M, Tomei L, Steinkuhler C, De Francesco R., J. Virol. 72(8):6758–69 (1998)) with modifications. Briefly, NS3/4A expression was induced with 0.5 mM Isopropyl β-D-1-thiogalactopyranoside (IPTG) for 22 hr at 20° C. A typical fermentation (10 L) yielded approximately 80 g of wet cell paste. The cells were resuspended in lysis buffer (10 mL/g) consisting of 25 mM N-(2-Hydroxyethyl)piperazine-N′-(2-Ethane Sulfonic acid) (HEPES), pH7.5, 20% glycerol, 500 mM Sodium Chloride (NaCl), 0.5% Triton-X100, 1 microgram/milliliter (“μg/mL”) lysozyme, 5 mM Magnesium Chloride (MgCl2), 1 ug/ml DnaseI, 5 mM β-Mercaptoethanol (βME), Protease inhibitor—Ethylenediamine Tetraacetic acid (EDTA) free (Roche), homogenized and incubated for 20 mins at 4° C. The homogenate was sonicated and clarified by ultra-centrifugation at 235000 g for 1 hr at 4° C. Imidazole was added to the supernatant to a final concentration of 15 mM and the pH adjusted to 8.0. The crude protein extract was loaded on a Nickel-Nitrilotriacetic acid (Ni-NTA) column pre-equilibrated with buffer B (25 mM HEPES, pH8.0, 20% glycerol, 500 mM NaCl, 0.5% Triton-X100, 15 mM imidazole, 5 mM βME). The sample was loaded at a flow rate of 1 mL/min. The column was washed with 15 column volumes of buffer C (same as buffer B except with 0.2% Triton-X100). The protein was eluted with 5 column volumes of buffer D (same as buffer C except with 200 mM Imidazole). […]

[2] = test system: HCV replicon (HCV 1b-377-neo replicon cells, Huh7); test: HCV replicon cell-based FRET assay; conditions: activity range symbols
Experimental: HCV Replion assays were utilized in the present invention, and were prepared, conducted and validated as follows:
An HCV replicon whole cell system was established as described by Lohmann V, Korner F, Koch J, Herian U, Theilmann L, Bartenschlager R., Science 285(5424): 110–3 (1999). This system enabled us to evaluate the effects of our HCV Protease compounds on HCV RNA replication. Briefly, using the HCV strain 1B sequence described in the Lohmann paper (Assession number: AJ238799), an HCV cDNA was synthesized by Operon Technologies, Inc. (Alameda, Calif.), and the full-length replicon was then assembled in plasmid pGem9zf(+) (Promega, Madison, Wis.) using standard molecular biology techniques. The replicon consists of (i) the HCV 5′ UTR fused to the first 12 amino acids of the capsid protein, (ii) the neomycin phosphotransferase gene (neo), (iii) the IRES from encephalomyocarditis virus (EMCV), and (iv) HCV NS3 to NS5B genes and the HCV 3′ UTR. Plasmid DNAs were linearized with ScaI and RNA transcripts were synthesized in vitro using the T7 MegaScript transcription kit (Ambion, Austin, Tex.) according to manufacturer's directions. To generate cell lines, 4×10^6 Huh-7 cells (kindly provided by R. Bartenschlager and available from Health Science Research Resources Bank, Japan Health Sciences Foundation) were electroporated (GenePulser System, Bio-Rad) with 10 microgram(“μg”) of RNA transcript and plated into 100-mm dishes. After 24 h, selective media containing 1.0 milligrams/milliliter (“mg/ml”) G418 was added and media was changed every 3 to 5 days. Approximately 4 weeks after electroporation, small colonies were visible which were isolated and expanded for further analysis. These cell lines were maintained at 37° C., 5% CO2, 100% relative humidity in DMEM (Cat# 11965-084) Gibco-BRL, Rockville, Md., with 10% heat inactivated calf serum (Sigma), 10 ml of 100× penicillin/streptomycin (Cat# 15140-122) Gibco-BRL, Rockville, Md., Geneticin (Cat# 10131-027) Gibco-BRL, Rockville, Md. at 1 mg/ml. One of the cell lines (deposited as ATCC Accession No. PTA-4583 in the American Type Culture Collection) which had approximately 3,000 copies of HCV replicon RNA/cell was used for development of the assay (HCV 1b-377-neo replicon cells).
Huh7 cells, constitutively expressing the HCV replicon, were grown in Dulbecco's Modified Eagle Media (DMEM) containing 10% Fetal calf serum (FCS) and 1 mg/ml G418 (Gibco-BRL). Cells were seeded the night before (1.5×10^4 cells/well) in 96-well tissue-culture sterile plates. Compound and no compound controls were prepared in DMEM containing 4% FCS, 1:100 Penicillin/Streptomysin, 1:100 L-glutamine and 5% DMSO in the dilution plate (0.5% DMSO final concentration in the assay). Compound/DMSO mixes were added to the cells and incubated for 4 days at 37° C. After 4 days, cells were first assessed for cytotoxicity using alamar Blue (Trek Diagnotstic Systems) for a CC50 reading. The toxicity of compound (CC50) was determined by adding 1/10th volume of alamar Blue to the media incubating the cells. After 4 hr, the fluorescence signal from each well was read, with an excitation wavelength at 530 nm and an emission wavelength of 580 nm, using the Cytofluor Series 4000 (Perspective Biosystems). Plates were then rinsed thoroughly with Phosphate-Buffered Saline (PBS) (3 times 150 μl). The cells were lysed with 25 μl of a lysis assay reagent containing an HCV protease substrate (5× cell Luciferase cell culture lysis reagent (Promega #E153A) diluted to 1× with distilled water, NaCl added to 150 mM final, the FRET peptide diluted to 10 μM final from a 2 mM stock in 100% DMSO). The HCV protease substrate (FRET peptide; AnaSpec, Inc. cat #22991, described by Taliani et al. in Anal. Biochem. 240(2):60–67 (1996)) contains a fluorescence donor, EDANS, near one end of the peptide and an acceptor, DABCYL, near the other end. […]

**Q.** Which results are given for COc1cc2ccnc(O[C@@H]3C[C@H]4C(=O)N[C@]5(C(=O)NS(=O)(=O)C6CC6)C[C@H]5/C=C\CCCCC[C@H](NC(=O)OC(C)(C)C)C(=O)N4C3)c2cc1Cl?
**A.** IC50 [1]: < 50 nM; EC50 [2]: < 50 nM

**Q.** For CC(C)(OC(=O)N[C@H]1CCCCC/C=C\[C@@H]2C[C@@]2(C(=O)NS(=O)(=O)C2CC2)NC(=O)[C@@H]2C[C@@H](Oc3nccc4ccccc34)CN2C1=O)C(F)F, which IC50 [1] is on record?
**A.** The IC50 was < 50 nM.

**Q.** And the EC50 [2]?
**A.** Its EC50 is < 50 nM.

**Q.** What does the source list for COc1ccc2c(O[C@@H]3C[C@H]4C(=O)N[C@]5(C(=O)NS(=O)(=O)C6CC6)C[C@H]5/C=C\CCCCC[C@H](NC(=O)OC(C)(C)C)C(=O)N4C3)nc(-c3ccc(N(C)C)cc3)cc2c1?
**A.** IC50 [1]: < 50 nM; EC50 [2]: < 50 nM

**Q.** For CC(C)(C)OC(=O)N[C@H]1CCCCC/C=C\[C@@H]2C[C@@]2(C(=O)NS(=O)(=O)C2CC2)NC(=O)[C@@H]2C[C@@H](Oc3nc(-c4ccccc4)cc4ccccc34)CN2C1=O [Compound 58, [(Z)-(1S,4R,14S,18R)-4-cyclopropanesulfonylaminocarbonyl-2,15-dioxo-18-(3-phenyl-isoquinolin-1-yloxy)-3,16-diaza-tricyclo[14.3.0.0^4,6]nonadec-7-en-14-yl]-carbamic acid tert-butyl ester], which IC50 [1] is on record?
**A.** The IC50 was < 50 nM.

**Q.** And the EC50 [2]?
**A.** Its EC50 is < 50 nM.

**Q.** With COc1ccc2c(O[C@@H]3C[C@H]4C(=O)N[C@]5(C(=O)NS(=O)(=O)C6CC6)C[C@H]5/C=C\CCCOC[C@H](NC(=O)OC(C)(C)C)C(=O)N4C3)nc(-c3ccccc3)cc2c1 as the molecule, how does the IC50 [1] read?
**A.** Its IC50 is < 50 nM.

**Q.** And the EC50 [2]?
**A.** The EC50 was < 50 nM.

**Q.** Which results are given for COc1ccc2c(O[C@@H]3C[C@H]4C(=O)N[C@]5(C(=O)NS(=O)(=O)C6CC6)C[C@H]5/C=C\COCCC[C@H](NC(=O)OC(C)(C)C)C(=O)N4C3)nc(-c3ccccc3)cc2c1?
**A.** IC50 [1]: < 50 nM; EC50 [2]: < 50 nM

**Q.** Which IC50 [1] does the source give for COc1ccc2c(O[C@@H]3C[C@H]4C(=O)N[C@]5(C(=O)NS(=O)(=O)C6CC6)C[C@H]5/C=C\COCCC[C@H](NC(=O)OC(C)(C)CCl)C(=O)N4C3)nccc2c1 here?
**A.** Its IC50 is < 50 nM.

**Q.** What about the EC50 [2] of the same molecule?
**A.** Its EC50 is 50 to 500 nM.

**Q.** Which IC50 [1] does the source give for COc1ccc2c(O[C@@H]3C[C@H]4C(=O)N[C@]5(C(=O)NS(=O)(=O)C6CC6)C[C@H]5/C=C\COCCC[C@H](NC(=O)NC5CCCC5)C(=O)N4C3)nc(-c3ccccc3)cc2c1 here?
**A.** Its IC50 is < 50 nM.

**Q.** And the EC50 [2]?
**A.** Its EC50 is < 50 nM.

**Q.** For COc1ccc2c(O[C@@H]3C[C@H]4C(=O)N[C@]5(C(=O)NS(=O)(=O)C6CC6)C[C@H]5/C=C\CCCOC[C@H](NC(=O)OC(C)(C)C)C(=O)N4C3)nc(-c3ccc(N(C)C)cc3)cc2c1, which IC50 [1] is on record?
**A.** The IC50 was < 50 nM.

**Q.** And the EC50 [2]?
**A.** The EC50 was < 50 nM.

**Q.** For COc1cc2ccnc(O[C@@H]3C[C@H]4C(=O)N[C@]5(C(=O)NS(=O)(=O)C6CC6)C[C@H]5/C=C\CCCSC[C@H](NC(=O)OC(C)(C)C)C(=O)N4C3)c2cc1Cl, which IC50 [1] is on record?
**A.** Its IC50 is < 50 nM.

**Q.** What about the EC50 [2] of the same molecule?
**A.** The EC50 was < 50 nM.

**Q.** With COc1ccc2c(O[C@@H]3C[C@H]4C(=O)N[C@]5(C(=O)NS(=O)(=O)C6CC6)C[C@H]5/C=C\CCCCC[C@H](NC(=O)OC(C)(C)C)C(=O)N4C3)nc(-c3ccccc3)cc2c1 as the molecule, how does the IC50 [1] read?
**A.** Its IC50 is < 50 nM.

**Q.** What about the EC50 [2] of the same molecule?
**A.** Its EC50 is < 50 nM.

**Q.** Which IC50 [1] does the source give for COc1ccc2c(O[C@@H]3C[C@H]4C(=O)N[C@]5(C(=O)NS(=O)(=O)C6CC6)C[C@H]5/C=C\COCCC[C@H](NC(=O)OC(C)(C)C)C(=O)N4C3)nc(-c3ccc(N(C)C)cc3)cc2c1 here?
**A.** Its IC50 is < 50 nM.

**Q.** What about the EC50 [2] of the same molecule?
**A.** The EC50 was < 50 nM.
